Laboratory results taken from patent US20090041797.

System: elongation factor-2 (EF-2)

Substance | Relative Activity (IVTT) (ratio (IC50 WT / IC50 variant)) | Relative IVTT score (ratio (IC50 WT / IC50 mutant))
null construct DT382(G53E) (no sequence given) | 0.43 | 0.43
wild type DT382 (truncated diphtheria toxin, […] of DT387) (no sequence given) | 1 | –
